According to publication PMC10184898 (2023):

Biological target: His-MoMagA^G187S (Magnaporthe oryzae, UniProt O13314 1-356, G187S)
Assay: MST

B1: His-MoRgs7 (natural protein)
chain: MANATSTPAVPAPRLNTGPVSIFFMVWGVTWTVLLVLGMAFLYYNRAMPLVRVRGLRLTFAAVILLHLYWILCQFGLLIFEYVPPEIMFWVMGMYVPWGIALFHASNSRFLYVAEAQKRFVGKAPAARQKPSASKNKTLLGKFWRLEYERRIVVVVCVGMALQFLLLVTMYLLSRKYHPSFGIPGTEVTTTNPMERLMQLYSGWEWWPSILWQFFWAWLVAPYILFKSRGIKDTLGWRVQTIACCIAGLPATPLWLAALYLPAFGPVNQYFIPPQWICVSITFIEFFAIILPCWQVLTHKTLRRETLDAIANWESRRGGDKDGKQSFASESTRQESTTSTWRLLSEIEKATGQSESLFTMAALDYMLKRNPEPLREFSALRDFSGENIAFLSAVSDWKAGAAEPKAPTDKTPAHSEEGVELRRVRFNDALHIYAEFVSPRHAEFQVNIGSADQKQLEAVFGPAAQILLGDSQRFDDLAVPFEMESTGEGVERVRAQYFGEIPDEFSDQVFDDAEVSIKYLVLTNTWPKFVKQGRYSMSINSVVSQSSDGSAEKEIGRVKKYLKRMKFGGAAL
For B1, the Kd was 462 nM.
